Read-outs that look alike come from different tables or passages of the source.
Tested on: Salmonella
Type: cell-based
Settings: composition listed in Table 1 in presence of the antibiotic; for Colonies showing decreasing inhibition zone / Colonies showing increasing inhibition zones / Colonies with no change in inhibition zone / Colonies showing change in susceptibility: 30 colonies; for % colonies showing increase in inhibition zone: of 30 tested colonies

| Molecule | % of colonies showing change in susceptibility (1 h) [%] | % of colonies showing change in susceptibility (2 h) [%] | Colonies showing decreasing inhibition zone (2 h) | Colonies showing increasing inhibition zones (2 h) | Colonies with no change in inhibition zone (2 h) | % colonies showing increase in inhibition zone (2 h) [%] | Colonies showing change in susceptibility (1 h) | Colonies showing decreasing inhibition zone (1 h) | Colonies showing increasing inhibition zones (1 h) | % colonies showing increase in inhibition zone (1 h) [%] | Colonies showing change in susceptibility (2 h) | Colonies with no change in inhibition zone (1 h) |
| --- | --- | --- | --- | --- | --- | --- | --- | --- | --- | --- | --- | --- |
| CO/N=C(\C(=O)N[C@@H]1C(=O)N2C(C(=O)O)=C(COC(C)=O)CS[C@H]12)c1csc(N)n1 [CTX, Cefotaxime] | 53.3 | 53.3 | 0 | 26 | 4 | 86.7 | – | – | – | – | – | – |
| Trimethoprim-Sulfamethoaxzole [SXT] | 40.0 | 40.0 | 2 | 23 | – | 76.7 | 12 | 1 | 24 | 80.0 | 12 | – |
| O=C(O)c1cn(C2CC2)c2cc(N3CCNCC3)c(F)cc2c1=O [CIP, Ciprofloxacin] | – | – | 1 | 27 | 2 | 90.0 | – | 0 | 29 | 96.7 | – | 1 |
| CC1COc2c(N3CCN(C)CC3)c(F)cc3c(=O)c(C(=O)O)cn1c23 (stereo not shown) [OFX, Ofloxacin] | 50.0 | 46.7 | 1 | – | 0 | 96.7 | 15 | 1 | – | 96.7 | 14 | 0 |
